Assay results from patent US20040063668A1, “Novel acyclic nucleoside phosphonate derivatives, salts thereof and process for the preparation of the same” (priority 2001, published 2004).

Tested on: HBV
Experiment: Pharmacological test on HBV transgenic mouse (serum HBV DNA by PCR)
Type: in vivo, HBV transgenic mice (FVB strain)
Details: oral, effect = blood does not contain HBV DNA

PMEA dipivoxil
Result: number of mice showing pharmacological effect/number of total mice (0.4 mg/kg/day for 9 days): 1/6 | Result: number of mice showing pharmacological effect/number of total mice (2 mg/kg/day for 9 days): 1/3
